Experimental data: PubChem BioAssay AID504761 (Drosophila RNAi Screening Center, 2011)
The deposit covers about 22,000 reagents; shown is an unselected part of those that have a named target and a result. Of all reagents, 116 (0.52%) were called active. 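Calls depend on retest data that are not deposited; infection was ranked per plate without normalising between plates; the unit of the infection score is not given.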 Raw values vary from plate to plate and are shown uncorrected. Reagents against one gene are numbered here. Further read-outs or replicates are left out here. The record does not give: the amount of reagent, the time to read-out.

Test: 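Genome-wide fly cell screen for genes dengue virus requires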 (primary screen)
Cell system: D.Mel-2 cells from Drosophila
Reagent: long dsRNA against Drosophila genes
Challenge: infection with dengue virus type 2; dose and infection time not stated
Measurement: 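Per well on two replicate plates, imaging gave the percent of cells positive for viral envelope protein, ranked by infection, and a nuclear count of cells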
Direction: infection score: higher = more virus-infected cells; cell count: higher = more cells in the well
Call rule: 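Low infection ranks in the two replicates (chance level up to 0.065) followed by a retest with a 1.5-fold or larger significant decrease, p below 0.05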
Meaning of the calls: active = confirmed: knock-down lowers infection; inactive = not picked or not confirmed

SdhC (Succinate dehydrogenase, subunit C) → infection score, replicate 1: 18; cell count, replicate 1: 3936; call: inactive
CG15905 → infection score, replicate 1: 1.48; cell count, replicate 1: 6363; call: inactive
tHMG1 (testis-enriched HMG-box-containing protein 1) → infection score, replicate 1: 19.9; cell count, replicate 1: 2726; call: inactive
CG15213 → infection score, replicate 1: 2.05; cell count, replicate 1: 6098; call: inactive
galene #1 → infection score, replicate 1: 1.97; cell count, replicate 1: 6038; call: inactive
galene #2 → infection score, replicate 1: 3.17; cell count, replicate 1: 6182; call: inactive
CG4998 #1 → infection score, replicate 1: 1.93; cell count, replicate 1: 5903; call: inactive
CG4998 #2 → infection score, replicate 1: 2.38; cell count, replicate 1: 6806; call: inactive
D19A #1 → infection score, replicate 1: 4.84; cell count, replicate 1: 5804; call: inactive
D19A #2 → infection score, replicate 1: 5.14; cell count, replicate 1: 6245; call: inactive
l(2)efl (lethal (2) essential for life) → infection score, replicate 1: 3.04; cell count, replicate 1: 6754; call: inactive
CG3500 #1 → infection score, replicate 1: 2.67; cell count, replicate 1: 6554; call: inactive
CG3500 #2 → infection score, replicate 1: 1.88; cell count, replicate 1: 6437; call: inactive
Fmr1 (Fragile X messenger ribonucleoprotein 1) #1 → infection score, replicate 1: 4.79; cell count, replicate 1: 6448; call: inactive
Fmr1 (Fragile X messenger ribonucleoprotein 1) #2 → infection score, replicate 1: 8.96; cell count, replicate 1: 6823; call: inactive
CanA1 (Calcineurin A1) #1 → infection score, replicate 1: 1.23; cell count, replicate 1: 5542; call: inactive
CanA1 (Calcineurin A1) #2 → infection score, replicate 1: 2.55; cell count, replicate 1: 6189; call: inactive
CG1172 #1 → infection score, replicate 1: 9.76; cell count, replicate 1: 6873; call: inactive
CG1172 #2 → infection score, replicate 1: 1.44; cell count, replicate 1: 6533; call: inactive
CG1172 #3 → infection score, replicate 1: 3.84; cell count, replicate 1: 6045; call: inactive
L (Lobe) #1 → infection score, replicate 1: 9.14; cell count, replicate 1: 6333; call: inactive
L (Lobe) #2 → infection score, replicate 1: 24.4; cell count, replicate 1: 5174; call: inactive
L (Lobe) #3 → infection score, replicate 1: 6.85; cell count, replicate 1: 6832; call: inactive

In a second layout: results already given
target gene	reagent no.	infection score, replicate 1	cell count, replicate 1	call
CG1172	2	1.44	6533	inactive
CG1172	3	3.84	6045	inactive
